Anti-infective test results gathered from many reports (values: NIAID ChemDB through PubChem).

Shared fields: growth or infection tests; organism: HIV-1; measure: inhibition

Inhibition is in % at the dose shown (toxicity tests: loss of growth or viability). Conditions beyond the fields shown may differ between rows. An empty or dashed field is not shown. a–b is a range or a potency band.

SMILES	strain	cell line	read by	setting	dose	value
O=C(C(=O)N1CCN(C(=O)c2ccccc2)CC1C(=O)O)c1c[nH]c2cccc(F)c12		HeLa + HELA CD4+/CCR5	luciferase		10 µM	74%
O=C1[C@@H](Cc2ccccc2)NC(=S)N1c1ccccc1		MT-4	cytopathic effect / XTT		10 µg/mL	12–16%
O=c1nc(N2C[C@H](O)[C@@H](O)C2)ccn1[C@H]1C[C@@H](O)[C@@H](CO)O1	IIIB	CEM-SS	visual reading / cell fusion		10 µM	7.7%
CCOc1ccc(Cl)cc1-c1oc2ccccc2c(=O)c1O	BaL	PM1	p24 / ELISA		10 µM	0%
CC(C)[C@H](NC(=O)[C@H](CO)NC(=O)[C@@H](N)CS)C(=O)N[C@H](C(=O)N[C@@H](CS)C(=O)NCC(=O)O)[C@@H](C)O	BaL	PBMC(PHA STIM.) + PBMC	p24		0.66 µM	0%
F[C@@H]1CCN(c2ccnc(N3CC[C@@H](F)C3)n2)C1	IIIB	CEM-SS	visual reading / cell fusion		10 µM	0%
Cc1ccc(N(C)C(=O)[C@H](Cc2ccccc2)NC(=O)CC2NC(=O)NC2=O)cc1	NL4-3	TZM-gfp	GFP		0.1 µM	3.22%
CC(=O)CCC(=O)NCCCOCCOCCCNC(=O)CNC(=O)[C@H](CS)NC(=O)[C@@H](NC(=O)[C@@H](NC(=O)[C@H](CO)NC(=O)[C@@H](N)CS)C(C)C)[C@@H](C)O	p13	PBMC(PHA STIM.) + PBMC	p24		0.3 µM	76%
Cc1nnc(NC(=O)NCCc2ccccc2)s1		MT-4	cytopathic effect / XTT		1 µg/mL	3%
N=C1Sc2ccccc2C2=NCCCN12	92HT599	PBMC	ELISA		1.92 µM	90%
CC(=O)N1C(=O)[C@@H](c2ccccc2)NC1=S		MT-4	cytopathic effect / XTT		10 µg/mL	0%
Cc1ccc(N(C)C(=O)[C@H](Cc2ccccc2)NC(=O)Cn2cc(C)c(=O)[nH]c2=O)cc1	NL4-3	TZM-gfp	GFP		0.1 µM	8.34%
CCCCCCCCCCCCCCc1sc(NC(=O)NCCc2ccccc2)nc1-c1ccc(Cl)cc1		MT-4	cytopathic effect / XTT		100 µg/mL	33%
CN(C(=O)[C@H](Cc1ccccc1)NC(=O)CNC(=O)c1ccccc1)c1ccccc1	NL4-3	TZM-gfp	GFP		0.1 µM	15.63%
Nc1ncnc2c1ncn2COCCOP(=O)(O)O[C@@H]1C[C@@H](COP(=O)(O)O[C@@H]2C[C@@H](COP(=O)(O)O[C@@H]3C[C@@H](CO)O[C@H]3n3cnc4c(NCc5ccccc5)ncnc43)O[C@H]2n2cnc3c(N)ncnc32)O[C@H]1n1cnc2c(N)ncnc21		SupT1 + Sup-T1	syncytia		0.01 µM	0%
COC(=O)N1c2ccc3ccccc3c2C=CC1C#N	IIIB	MOLT-3	syncytia		50 µM	37.8%
CCCC1CN(C(=O)c2ccccc2)CCN1C(=O)C(=O)c1c[nH]c2c(C(=O)OC)cccc12		HeLa + HELA CD4+/CCR5	luciferase		10 µM	95%
O=C(NCCc1ccccc1)Nc1nc2ccccc2s1		MT-4	cytopathic effect / XTT		100 µg/mL	41–100%
O=S(=O)(O)c1ccc(-c2c3nc(c(-c4ccc(S(=O)(=O)O)cc4)c4ccc([nH]4)c(-c4ccc(S(=O)(=O)O)cc4)c4nc(c(-c5ccc(S(=O)(=O)O)cc5)c5ccc2[nH]5)C=C4)C=C3)cc1	IIIB	MAGI	β-galactosidase		50 µg/mL	93%
Nc1ccn([C@H]2C=C[C@@H](CO)O2)c(=O)n1	IIIB	ATH8	cytopathic effect		0.1 µM	40%
Cc1ccc(F)c2c(C(=O)C(=O)N3CCN(C(=O)c4ccccc4)CC3)c[nH]c12		HeLa + HELA CD4+/CCR5	luciferase		10 µM	>98%
CCCCCCCCCCCCCCCCOP(=O)(OC[C@H]1OC(O)[C@@H](O)[C@@H](O)[C@@H]1O)OC[C@H]1O[C@@H](n2cc(C)c(=O)[nH]c2=O)C[C@@H]1N=[N+]=[N-]	LAV-Bru	U-937	RT activity	7 d	0.2 µM	0%
N#CC1C=Cc2c(ccc3ccccc23)N1C(=O)c1ccco1	IIIB	MOLT-3	syncytia		50 µM	53.5%
CCOc1ccc2nc(NC(=O)NCCc3ccccc3)sc2c1		MT-4	cytopathic effect / XTT		1 µg/mL	0%
CN(C(=O)[C@H](Cc1ccccc1)NC(=O)CNC(=O)c1ccccc1)c1ccc(F)cc1	NL4-3	TZM-gfp	GFP		0.1 µM	12.37%
O=c1oc2cc(O)cc(O)c2c(O)c1-c1coc2c1c(=O)oc1cc(O)cc(O)c12	IIIB	MT-4	MTT		0.01 µM	50%
Nc1nc(N)c2ncn([C@@H]3O[C@H](CO)C[C@@H]3F)c2n1	LAI	ATH-8 + ATH8	cytopathic effect / XTT		100 µM	40%
Nc1ccc(S(=O)(=O)O)c2cccc(O)c12		MOLT-3	syncytia		20 µg/mL	73%
CCc1cccc2c(C(=O)C(=O)N3CCN(C(=O)c4ccccc4)C[C@@H]3C)c[nH]c12		HeLa + HELA CD4+/CCR5	luciferase		10 µM	72%
COc1c(C)c2c(c(O)c1C/C=C(\C)CCC(=O)O)C(=O)OC2	SF162	Macrophage + Monocytes/macrophages	RT activity		1 µM	80%
CCOc1ccccc1CCNC(=S)Nc1nccs1		MT-4	cytopathic effect / XTT		1 µg/mL	96%
Cc1cn([C@H]2C[C@H](N=[N+]=[N-])[C@@H](COP(=O)(O)OCCO[C@H]3O[C@H](CO)[C@@H](O)[C@H](O)[C@@H]3O)O2)c(=O)[nH]c1=O	LAV-Bru	U-937	RT activity	11 d	5 µM	0%
Cc1cn([C@H]2CC(O)[C@@H](COP(=O)(O)O)O2)c(=O)nc1N1CCCC1	IIIB	CEM-SS	visual reading / cell fusion		10 µM	44.1%
Cc1cn(CC(=O)N[C@@H](Cc2ccccc2)C(=O)N(C)c2cccc(Cl)c2)c(=O)[nH]c1=O	NL4-3	TZM-gfp	GFP		0.1 µM	38.95%
Cc1ccc(S)c(C(=O)N2CCN(C(=O)C(=O)c3c[nH]c4cccc(F)c34)CC2)c1		HeLa + HELA CD4+/CCR5	luciferase		10 µM	>98%
Nc1cc(S(=O)(=O)O)c2ccccc2c1N		H9	p24		10 µg/mL	44%
CCCOC(=O)N1C=CC(C#N)C(C(C)=O)=C1	IIIB	MOLT-3	syncytia		50 µM	0%
Nc1ncnc2c1ncn2COCCOP(=O)([O-])O[C@@H]1[C@H](O)[C@@H](COP(=O)([O-])O[C@@H]2[C@H](O)[C@@H](COP(=O)([O-])O[C@@H]3[C@H](O)[C@@H](CO)O[C@H]3n3cnc4c(N)ncnc43)O[C@H]2n2cnc3c(N)ncnc32)O[C@H]1n1cnc2c(N)ncnc21		SupT1 + Sup-T1	syncytia		300 µM	99%
S=C(NCCc1ccc(Cl)cc1)Nc1nccs1		MT-4	cytopathic effect / XTT		1 µg/mL	5–22%
CC(=O)C1=CN(C(=O)Oc2ccc(Cl)cc2)C=CC1C#N	IIIB	MOLT-3	syncytia		50 µM	0%
CCCCCCCCNCC(O)CCCCCCCCCn1c(=O)c2c(ncn2C)n(C)c1=O	LAV	U1(HIV-1 (LAV)) + U1	p24		25 µM	90%
COC(=O)N1C=CC(C#N)C(C(C)=O)=C1	IIIB	MOLT-3	syncytia		50 µM	0%
Cc1cn(CC(=O)N[C@@H](Cc2ccccc2)C(=O)N(C)c2ccccc2)c(=O)[nH]c1=O	NL4-3	TZM-gfp	GFP		0.1 µM	36.8%
CC(C)c1cnn2c(NCc3ccc(-c4ccccn4)cc3)nc(N[C@H](CO)C(C)O)nc12		ACH2	trypan blue		0.05 µM	50%
OC[C@H]1O[C@@H](n2cnc3c(N4C[C@@H](O)[C@H](O)C4)ncnc32)C[C@H]1O	IIIB	CEM-SS	visual reading / cell fusion		10 µM	4.3%
Cc1cn(CC(=O)N[C@@H](Cc2ccccc2)C(=O)N(C)c2cccc(C(F)(F)F)c2)c(=O)[nH]c1=O	NL4-3	TZM-gfp	GFP		0.1 µM	29.47%
O=C(C(=O)N1CCN(C(=O)c2c(S)cccc2Cl)CC1)c1c[nH]c2cccc(Cl)c12		HeLa + HELA CD4+/CCR5	luciferase		10 µM	94%
O=c1nc(N2CCCC2)ccn1[C@H]1C[C@@H](O)[C@@H](CO)O1	IIIB	CEM-SS	XTT / cell fusion		10 µM	3.6%
Nc1ccccc1C(=O)N1CCN(C(=O)C(=O)c2c[nH]c3ccccc23)CC1		HeLa + HELA CD4+/CCR5	luciferase		10 µM	36%
CC1(C)[C@@H](O[C@H]2O[C@H](C(=O)O)[C@@H](O)[C@H](O)[C@H]2O[C@@H]2O[C@H](C(=O)O)[C@@H](O)[C@H](O)[C@H]2O)CC[C@]2(C)[C@H]3C(=O)C=C4[C@@H]5C[C@@](C)(C(=O)O)CC[C@]5(C)CC[C@@]4(C)[C@]3(C)CC[C@@H]12	IIIB	MOLT-4	antigen	9 d	1200 µM	94.1%
C=C(C)[C@@H]1CC[C@]2(C(=O)NCCCCCCCC(=O)N[C@@H](CC(C)C)[C@@H](O)CC(=O)O)CC[C@]3(C)[C@H](CC[C@@H]4[C@@]5(C)CC[C@H](O)C(C)(C)[C@@H]5CC[C@]43C)[C@@H]12	LN7	HeLa P4 + HeLa	syncytia		10 µM	28%
O=S(=O)(O)c1ccc(-c2c3nc(c(-c4ccc(S(=O)(=O)O)cc4)c4ccc([nH]4)c(-c4ccc(S(=O)(=O)O)cc4)c4nc(c(-c5ccccc5)c5ccc2[nH]5)C=C4)C=C3)cc1	IIIB	MAGI	β-galactosidase		50 µg/mL	81%
Nc1ncnc2c1ncn2COCCOP(=O)([O-])O[C@@H]1C[C@@H](COP(=O)([O-])O[C@@H]2C[C@@H](COP(=O)([O-])O[C@@H]3C[C@@H](CO)O[C@H]3n3cnc4c(N)[n+](Cc5ccccc5)cnc43)O[C@H]2n2cnc3c(N)ncnc32)O[C@H]1n1cnc2c(N)ncnc21		SupT1 + Sup-T1	syncytia		10 µM	81%
C[C@H]1CN(C(=O)c2ccccc2)CCN1C(=O)C(=O)c1c[nH]c2cc(Cl)ccc12		HeLa + HELA CD4+/CCR5	luciferase		10 µM	>98%
CCCCCCCCCCCCCCCCOP(=O)(OCCO[C@@H]1O[C@H](CO)[C@@H](O)[C@H](O)[C@@H]1O)OC[C@H]1O[C@@H](n2cc(C)c(=O)[nH]c2=O)C[C@@H]1N=[N+]=[N-]	LAV-Bru	U-937	RT activity	14 d	1 µM	0%

For reference, 6 entries again:

SMILES,strain,cell line,read by,setting,dose,value
O=S(=O)(O)c1ccc(-c2c3nc(c(-c4ccc(S(=O)(=O)O)cc4)c4ccc([nH]4)c(-c4ccc(S(=O)(=O)O)cc4)c4nc(c(-c5ccccc5)c5ccc2[nH]5)C=C4)C=C3)cc1,IIIB,MAGI,β-galactosidase,,50 µg/mL,81%
CN(C(=O)[C@H](Cc1ccccc1)NC(=O)CNC(=O)c1ccccc1)c1ccc(F)cc1,NL4-3,TZM-gfp,GFP,,0.1 µM,12.37%
CCc1cccc2c(C(=O)C(=O)N3CCN(C(=O)c4ccccc4)C[C@@H]3C)c[nH]c12,,HeLa + HELA CD4+/CCR5,luciferase,,10 µM,72%
Cc1cn(CC(=O)N[C@@H](Cc2ccccc2)C(=O)N(C)c2ccccc2)c(=O)[nH]c1=O,NL4-3,TZM-gfp,GFP,,0.1 µM,36.8%
O=C(NCCc1ccccc1)Nc1nc2ccccc2s1,,MT-4,cytopathic effect / XTT,,100 µg/mL,41–100%
CC(C)c1cnn2c(NCc3ccc(-c4ccccn4)cc3)nc(N[C@H](CO)C(C)O)nc12,,ACH2,trypan blue,,0.05 µM,50%